Pooled drug test results. Numbers come from NIAID ChemDB, via PubChem.

All rows: tests in culture; species: HIV-1; read by: cytopathic effect / MTT; measure: fold resistance

An empty or dashed field is not shown. Lines come from different laboratories, so protocols vary. Fold resistance has wild type as its base.

compound,strain,cell line,changes,result
CCOCn1c(Cc2cc(Cl)cc(Cl)c2)c(CC)c(=O)[nH]c1=O,NNRTI-resistant (RT K103N Y181C) A17,MT-4,RT-K103N Y181C,>250
C=CCOCn1c(Cc2cccc(Cc3[nH]c(=O)[nH]c(=O)c3CC)c2)c(CC)c(=O)[nH]c1=O,RT-K103N+Y181C NNRTI-resistant,MT-4,RT-K103N Y181C,>9.1
Cc1cc(C)cc(S(=O)(=O)c2c(C(=O)NCCO)[nH]c3ccc(Cl)cc23)c1,-,MT-4,RT-Y181C,11
CCc1c(C)[nH]c(=O)c(C(C)C)c1Oc1cc(C)cc(C)c1,-,MT-4,RT-K103N,2
Cc1nc(N)nc(C)c1OCC(=O)N[C@@H](Cc1ccccc1)[C@H](O)CN(CC(C)C)S(=O)(=O)c1ccc2nc(N)oc2c1,LAI,MT-4,PR-L010F M046I M071V I084V,62
CCC(C)[C@@H](C(=O)N[C@@H](Cc1ccccc1)[C@H](O)CN(CC(C)C)S(=O)(=O)c1ccc(/C=N/O)cc1)N1CC(=O)N(Cc2ccccn2)C1=O,A17 (LPV-resistant),MT-4,PR-L10F V32I M46I I47V Q68E I84V,2
Cc1cccc(S(=O)(=O)c2c(C(=O)NCCO)[nH]c3ccc(Cl)cc23)c1,-,MT-4,RT-K103N Y181C,366
C=CCOCn1c(Cc2cc(Cl)cc(Cl)c2)c(CC)c(=O)[nH]c1=O,NNRTI-resistant (RT Y181C) N119,MT-4,RT-Y181C,>333
Cc1cccc(C)c1OCC(=O)N[C@@H](Cc1ccccc1)[C@H](O)CN(CC(C)C)S(=O)(=O)c1ccc2nc(N)oc2c1,LAI,MT-4,PR-L010F M046I M071V I084V,8.5
CCc1c(CC2CCCc3ccccc32)n(COCC=C(C)C)c(=O)[nH]c1=O,N119 RT-Y181C NNRTI-resistant,MT-4,RT-Y181C,>25
Cn1c2ccccc2c2c1cc(C#N)c(=O)n2-c1ccc([N+](=O)[O-])cc1,A,MT-4,RT-Y181C,4
NC(=O)c1[nH]c2ccc(Cl)cc2c1S(=O)(=O)c1ccccc1,-,MT-4,RT-Y181C,15
CCCc1c(Cc2ccccc2)n(COC/C=C/c2ccccc2)c(=O)[nH]c1=O,NNRTI-resistant (RT Y181C) N119,MT-4,RT-Y181C,>10000
CC(=O)Nc1nc(-c2ccc(S(=O)(=O)N(CC(C)C)C[C@@H](O)[C@H](Cc3ccccc3)NC(=O)O[C@H]3CO[C@H]4OCC[C@H]43)cc2)cs1,-,MT-4,PR-L010F M046I M071V I084V,151
CC(C)CN(C[C@@H](O)[C@H](Cc1ccccc1)NC(=O)[C@H](C(C)C)N1CC(=O)N(Cc2ccncc2)C1=O)S(=O)(=O)c1ccc(/C=N/O)cc1,A17 (LPV-resistant),MT-4,PR-L10F V32I M46I I47V Q68E I84V,0.94
Cc1cn([C@H]2C=C[C@@H](CO)O2)c(=O)[nH]c1=O,HXB2,MT-4,RT-K65R,1.2
CCOCn1c(Cc2cccc(Cc3c(CC)c(=O)[nH]c(=O)n3COCC)c2)c(CC)c(=O)[nH]c1=O,RT-K103N+Y181C NNRTI-resistant,MT-4,RT-K103N Y181C,>7.1
Cc1cc(C)c(Oc2nc(Nc3ccc(C#N)cc3)c(=O)n(C)c2C)c(C)c1,-,MT-4,RT-Y188L,40
N#Cc1cc2[nH]c3ccccc3c2n(-c2ccc([N+](=O)[O-])cc2)c1=O,E,MT-4,RT-F227C,6
C#CCOCn1c(Cc2cc(Cl)cc(Cl)c2)c(CC)c(=O)[nH]c1=O,NNRTI-resistant (RT Y181C) N119,MT-4,RT-Y181C,600
CCc1c(Cc2cccc(Cc3nc(SC(C)C)[nH]c(=O)c3CC)c2)nc(SC(C)C)[nH]c1=O,RT-K103N+Y181C NNRTI-resistant,MT-4,RT-K103N Y181C,>2.5
NC(=O)c1[nH]c2ccc(Cl)cc2c1S(=O)(=O)c1ccccc1,Efavirenz-resistant (RT K103R V179D P225H),C8166,RT-K103R V179D P225H,129
CC(C)CN(C[C@@H](O)[C@H](Cc1ccccc1)NC(=O)OC1COC2OCCNC12)S(=O)(=O)c1ccc2nc(N)oc2c1,LAI,MT-4,PR-L010F M046I M071V I084V,0.63
COc1ccc(/C=C/CSc2nc(Cc3c(F)cccc3F)c(C)c(=O)[nH]2)cc1,NNRTI-resistant,MT-4,RT-Y188L,>9139
CCc1c(Cc2cc(C)cc(C)c2)n(COC/C(C)=C/c2ccccc2)c(=O)[nH]c1=O,NNRTI-resistant (RT Y181C) N119,MT-4,RT-Y181C,666
Cc1cc(C)cc(S(=O)(=O)c2c(C(N)=O)[nH]c3c(Cl)cc(Cl)cc23)c1,-,MT-4,RT-Y181C,>62.5
CCOCn1c(Cc2cccc(Cc3[nH]c(=O)[nH]c(=O)c3CC)c2)c(CC)c(=O)[nH]c1=O,NNRTI-resistant,MT-4,RT-Y181C,>2.1
CCc1c(Cc2cc(Cl)cc(Cl)c2)n(COC2Cc3ccccc3C2)c(=O)[nH]c1=O,NNRTI-resistant (RT Y181C) N119,MT-4,RT-Y181C,16.15
CCc1c(C(C)c2c(F)cccc2F)nc(SC/C=C/c2ccc([N+](=O)[O-])cc2)[nH]c1=O,NNRTI-resistant,MT-4,RT-K103N,>1437500
CC(C)CN(C[C@@H](O)[C@H](Cc1ccccc1)NC(=O)O[C@H]1CO[C@H]2OCC[C@H]21)S(=O)(=O)c1ccc(-c2coc(-c3ccco3)n2)cc1,-,MT-4,PR-L010F M046I M071V I084V,44.7
O=C(NNCCO)c1[nH]c2ccc(Cl)cc2c1S(=O)(=O)c1ccccc1,-,MT-4,RT-Y181C,120
CCCc1c(Cc2cc(C)cc(C)c2)n(COC/C=C/c2ccccc2)c(=O)[nH]c1=O,NNRTI-resistant (RT K103N Y181C) A17,MT-4,RT-K103N Y181C,>1666
Cc1ccc(S(=O)(=O)c2c(C(=O)NNCCO)[nH]c3ccc(Cl)cc23)cc1,-,MT-4,RT-Y181C,5
CCc1c(Cc2c(Cl)cccc2Cl)nc(SC/C=C/c2ccc(C#N)cc2)[nH]c1=O,NNRTI-resistant,MT-4,RT-K103N,20.12
Cc1cc(C#N)cc(C)c1Oc1nc(Nc2ccc(C#N)cc2)c(=O)n(C)c1C,-,MT-4,RT-L100I,1
Cc1cc(C)cc(S(=O)(=O)c2c(C(=O)/C=C/C(N)=O)[nH]c3ccc(Cl)cc23)c1,-,C8166,RT-K103R,>1666
CCOC(=O)CCc1nc(-c2ccc(S(=O)(=O)N(CC(C)C)C[C@@H](O)[C@H](Cc3ccccc3)NC(=O)O[C@H]3CO[C@H]4OCC[C@H]43)cc2)co1,-,MT-4,PR-L010F M046I M071V I084V,30
Cc1ncnc(C)c1OCC(=O)N[C@@H](Cc1ccccc1)[C@H](O)CN(CC(C)C)S(=O)(=O)c1ccc2nc(N)oc2c1,LAI,MT-4,PR-L010F M046I M071V I084V,170
CCc1c(Cc2cccc(Cc3nc(SC)nc(OC)c3CC)c2)nc(SC)nc1OC,NNRTI-resistant,MT-4,RT-Y181C,>2.4
O=c1cc(Cc2ccc3ccccc3c2)nc(SC2CCCC2)[nH]1,MC639(RT-V179D),MT-4,RT-V179D,11.8
C=C(C)COCn1c(CC2CCCc3ccccc32)c(CC)c(=O)[nH]c1=O,N119 RT-Y181C NNRTI-resistant,MT-4,RT-Y181C,>33.3
CCc1c(C)[nH]c(=O)c(CC)c1Oc1cc(C)cc(C)c1,-,MT-4,RT-K103N,13
CCc1c(Cc2cc(C)cc(C)c2)n(COC/C=C/c2ccccc2)c(=O)[nH]c1=O,NNRTI-resistant (RT Y181C) N119,MT-4,RT-Y181C,1333
Cc1ccc(Oc2nc(Nc3ccc(C#N)cc3)c(=O)n(C)c2C)c(C)c1,-,MT-4,RT-L100I K103N,528
CCC(C)[C@@H](C(=O)N[C@@H](Cc1ccccc1)[C@H](O)CN(CC(C)C)S(=O)(=O)c1ccc(/C=N/O)cc1)N1CC(=O)N(Cc2ccncc2)C1=O,A17 (LPV-resistant),MT-4,PR-L10F V32I M46I I47V Q68E I84V,0.2
CC(C)CN(C[C@@H](O)[C@H](Cc1ccccc1)NC(=O)O[C@H]1CO[C@H]2OCC[C@H]21)S(=O)(=O)c1ccc(-c2cnc(NC(=O)O[C@H]3CO[C@H]4OCC[C@H]43)[nH]2)cc1,-,MT-4,PR-L010F M046I M071V I084V,2.6
Cc1ccc(S(=O)(=O)c2c(C(N)=O)[nH]c3ccc(Cl)cc23)c(C)c1,N119 nevirapine-resistant (RT Y181C),MT-4,RT-Y181C,37.5
CCc1c(Cc2cc(C)cc(C)c2)n(COC2C=CCCC2)c(=O)[nH]c1=O,NNRTI-resistant (RT Y181C) N119,MT-4,RT-Y181C,>2500
CCc1c(C)[nH]c(=O)c(C(F)(F)F)c1Oc1cc(C)cc(C)c1,-,MT-4,RT-K103N,4
C=CCOCn1c(Cc2cccc(Cc3c(CC)c(=O)[nH]c(=O)n3COCC=C)c2)c(CC)c(=O)[nH]c1=O,RT-K103N+Y181C NNRTI-resistant,MT-4,RT-K103N Y181C,>2.9
CCC(C)[C@@H](C(=O)N[C@@H](Cc1ccccc1)[C@H](O)CN(CC(C)C)S(=O)(=O)c1ccc(/C=N/O)cc1)N1CCN(Cc2cccc(C)n2)C1=O,A17 (LPV-resistant),MT-4,PR-L10F V32I M46I I47V Q68E I84V,3.5
Cc1ccccc1S(=O)(=O)c1c(C(=O)NCCO)[nH]c2ccc(Cl)cc12,-,MT-4,RT-K103N Y181C,387
COc1ccc(S(=O)(=O)N(CC(C)C)C[C@@H](O)[C@H](Cc2ccccc2)NC(=O)[C@H](C(C)C)N2CC(=O)N(Cc3ccccc3)C2=O)cc1,A17 (LPV-resistant),MT-4,PR-L10F V32I M46I I47V Q68E I84V,11.8
Cc1cc(C)cc(S(=O)(=O)c2c(C(N)=O)[nH]c3ccc(Cl)cc23)c1,Efavirenz-resistant (RT K103R V179D P225H),C8166,RT-K103R V179D P225H,40
CCc1c(C)[nH]c(=O)c(I)c1Oc1cc(C)cc(C)c1,-,MT-4,RT-Y181C,16
CCC(C)[C@@H](C(=O)N[C@@H](Cc1ccccc1)[C@H](O)CN(CC1CCCC1)S(=O)(=O)c1ccc(/C=N/O)cc1)N1CCN(Cc2cccc(COC)n2)C1=O,A17 (LPV-resistant),MT-4,PR-L10F V32I M46I I47V Q68E I84V,0.5
Cc1cc(C)cc(Sc2c(C(=O)NCCO)[nH]c3ccc(Cl)cc23)c1,-,MT-4,RT-Y181C,50
CCCc1c(Cc2ccccc2)n(COC/C(C)=C/c2ccccc2)c(=O)[nH]c1=O,NNRTI-resistant (RT K103N Y181C) A17,MT-4,RT-K103N Y181C,>2500
O=C(NCCO)c1[nH]c2ccc(Cl)cc2c1S(=O)(=O)c1ccccc1,-,MT-4,RT-K103N Y181C,4200
CCc1c(Cc2cc(Cl)cc(Cl)c2)n(COC2CCc3ccccc32)c(=O)[nH]c1=O,NNRTI-resistant (RT K103N Y181C) A17,MT-4,RT-K103N Y181C,200
Cc1cc(C)cc(Sc2c(C(=O)NNCCO)[nH]c3ccc(Cl)cc23)c1,-,MT-4,RT-K103N Y181C,223
CCC(C)[C@@H](C(=O)N[C@@H](Cc1ccccc1)[C@H](O)CN(CC(C)C)S(=O)(=O)c1ccc(/C=N/O)cc1)N1CCN(Cc2ccc(C)nc2)C1=O,A17 (LPV-resistant),MT-4,PR-L10F V32I M46I I47V Q68E I84V,6.5

7 of the rows above, restated:

compound	strain	cell line	changes	result
Cc1cc(C)c(Oc2nc(Nc3ccc(C#N)cc3)c(=O)n(C)c2C)c(C)c1	-	MT-4	RT-Y188L	40
CCc1c(C(C)c2c(F)cccc2F)nc(SC/C=C/c2ccc([N+](=O)[O-])cc2)[nH]c1=O	NNRTI-resistant	MT-4	RT-K103N	>1437500
CCc1c(Cc2cc(C)cc(C)c2)n(COC/C=C/c2ccccc2)c(=O)[nH]c1=O	NNRTI-resistant (RT Y181C) N119	MT-4	RT-Y181C	1333
COc1ccc(S(=O)(=O)N(CC(C)C)C[C@@H](O)[C@H](Cc2ccccc2)NC(=O)[C@H](C(C)C)N2CC(=O)N(Cc3ccccc3)C2=O)cc1	A17 (LPV-resistant)	MT-4	PR-L10F V32I M46I I47V Q68E I84V	11.8
CCc1c(Cc2cccc(Cc3nc(SC(C)C)[nH]c(=O)c3CC)c2)nc(SC(C)C)[nH]c1=O	RT-K103N+Y181C NNRTI-resistant	MT-4	RT-K103N Y181C	>2.5
Cc1ccc(Oc2nc(Nc3ccc(C#N)cc3)c(=O)n(C)c2C)c(C)c1	-	MT-4	RT-L100I K103N	528
CC(C)CN(C[C@@H](O)[C@H](Cc1ccccc1)NC(=O)OC1COC2OCCNC12)S(=O)(=O)c1ccc2nc(N)oc2c1	LAI	MT-4	PR-L010F M046I M071V I084V	0.63